# Results deposited as PubChem BioAssay AID504761 (Drosophila RNAi Screening Center, 2011).
# Purpose: 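Genome-wide fly cell screen for genes dengue virus requires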 (primary screen)
# System: D.Mel-2 cells from Drosophila
# Reagent: long dsRNA against Drosophila genes
# Conditions: infection with dengue virus type 2; dose and infection time not stated
# Measurement: 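Cells stained for dengue envelope protein and imaged; percent of infected cells per well on duplicate plates, ranked by infection, with stained nuclei counted for cell number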
# Direction: infection score: higher = more virus-infected cells; cell count: higher = more cells in the well
# Hit rule: 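Low infection ranks in the two replicates (chance level up to 0.065) followed by a retest with a 1.5-fold or larger significant decrease, p below 0.05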
# Meaning of the calls: active = confirmed: knock-down lowers infection; inactive = not picked or not confirmed
# The deposit covers about 22,000 reagents; this is an unselected part of those that have a named target and a result. Over the whole deposit, 116 (0.52%) are marked active. 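Calls depend on retest data that are not deposited; infection was ranked per plate without normalising between plates; the unit of the infection score is not given.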 Raw values vary from plate to plate and are shown uncorrected. Reagents against one gene are numbered here. Not all columns of the deposit are shown. Reagent sequences are not shown. Not stated in the record: the amount of reagent, the time to read-out.
target,reagent,"infection score, replicate 1","infection score, replicate 2","cell count, replicate 1",call
Ald1,1,1.34,2.99,4021,inactive
Ald1,2,1.58,1.86,3869,inactive
CG34227,1,15.3,,6381,inactive
CG34227,2,10.2,3.71,6103,inactive
mod(mdg4),1,2.64,0.61,6140,inactive
mod(mdg4),2,3.62,1.17,6383,inactive
mod(mdg4),3,1.54,5.69,5919,inactive
PolA2,1,13.8,8.75,3405,inactive
ng1,1,4.42,7.79,6465,inactive
sut4,1,9.12,10.8,6435,inactive
sut4,2,0.95,2.45,6845,inactive
l(2)09851,1,3.67,6.4,6508,inactive
CG2794,1,11.5,22.1,6332,inactive
Or65c,1,2.33,5.4,6322,inactive

As entered above:
Value for ng1 in “infection score, replicate 2”: 7.79
Entry of CG34227 #1 under “infection score, replicate 1”: 15.3

Continued:
target,reagent,"infection score, replicate 1","infection score, replicate 2","cell count, replicate 1",call
Sec24CD,1,5.91,3.64,5823,inactive
RpL4,1,3.23,5.14,1519,inactive
RpL4,2,2.91,7.61,1237,inactive
Prosbeta4R2,1,3.22,1.36,6240,inactive
Prosbeta4R2,2,17.6,3.53,5631,inactive
CG12516,1,0.41,2.83,6070,inactive
CG15269,1,5.02,7.91,6290,inactive
CG15269,2,4.91,2.47,5986,inactive
CG1421,1,7.36,12.6,6281,inactive
